Results of unrelated studies side by side (data: NIAID ChemDB).

Common to all: tests in culture; species: HIV-1; read by: luminescence; measure: EC50

ECn is the concentration giving n% inhibition of infection, replication or growth. Blank or dashed fields: not listed here. Conditions beyond the fields shown may differ between rows.

| SMILES | strain | cells | conditions | changes | value |
|---|---|---|---|---|---|
| Cc1cc(N)c(C)c2c1[nH]c1cc(Cl)ccc12 | NL4-3 | TZM-bl |  |  | 9.3 µM |
| Cc1cc2nc(-c3ccc4c(n3)c(C3CCN(C5CN(O)C5)CC3)nn4C)sc2c(-c2ccc(Cl)cc2)c1[C@H](OC(C)(C)C)C(=O)O | IIIB | MT-4 |  |  | 0.011 µM |
| Clc1cc(/C=C/c2ccc(-c3ccccc3)cc2)nc2ccccc12 | UG070 | TZM-bl |  |  | 85.42 µM |
| CCCCCOC(=O)C[C@H](NP(=O)(CO[C@@H](CF)COc1nccc(N)n1)Oc1ccccc1)C(=O)OCCCCC | BaL | TZM-bl |  |  | 5.52 µM |
| COc1cc(C(=O)Sc2ccccc2C(=O)NCCC(N)=O)cc(OC)c1OC | IIIB | TZM-bl |  |  | 2.2 µM |
| CC(C)OC(=O)CNP(=O)(CO[C@@H]1C=C(F)[C@H](n2cnc3c(N)ncnc32)O1)NCC(=O)OC(C)C | IIIB | MT-2 |  |  | >2 µM |
| CCOCCN1CCN(c2nn(C)c3ccc(-c4nc5cc(C)c([C@H](OC(C)(C)C)C(=O)O)c(-c6ccc(Cl)cc6)c5s4)cc23)CC1 | IIIB | MT-4 |  |  | 0.485 µM |
| COC(=O)N[C@H](C(=O)N[C@@H](Cc1ccc(C#Cc2cnc(N3CC4CCC(C3)N4C3COC3)nc2)cc1)[C@H](CN(Cc1c(F)cc(-c2ccn(C(F)F)n2)cc1F)NC(=O)[C@@H](NC(=O)OC)C(C)(C)C(F)(F)F)OC(=O)CC(C)(C)c1c(C)cc(C)cc1OP(=O)(O)O)C(C)(C)C(F)(F)F | IIIB | MT-4 |  |  | 0.5773 µM |
| O=C(/C=C/c1ncc(-c2ccccc2)cn1)Nc1cc(-c2ccc3c(c2)CCCC3)[nH]n1 | NL4-3 | MT-4 |  | WT | 0.99 µM |
| C#C[C@]1(CO)O[C@@H](n2cnc3c(NC(=O)CCCCCCCCC)nc(F)nc32)C[C@@H]1OC(=O)CCCCCCCCC | NL4-3 | U373-CD4-CXCR4 | pseudotyped |  | 0.0068 µM |
| Cc1ccc(/C=C/c2cc(Cl)c3ccccc3n2)cc1 | UG070 | TZM-bl |  |  | 10.01 µM |
| COC(=O)c1ccccc1C(=O)Nc1nnc(-c2ccc(OC)cc2)s1 | NL4-3 | TZM-bl |  |  | 10 µM |
| COc1cc(/C=C/c2ccc3ccc(C(C)=O)c(O)c3n2)cc(O)c1O |  | TZM-bl |  |  | 0.7 µM |
| CC1=C[C@]23C(=O)[C@@H](C=C(CO)[C@@H](O)[C@]2(O)[C@H]1O)[C@H]1[C@@H](CC3C)C1(C)C | NL4-3 | MT-4 |  |  | >10 µM |
| Clc1cc(/C=C/c2ccc(N3CCCCC3)cc2)nc2ccccc12 | UG070 | TZM-bl |  |  | 66.79 µM |
| Cc1ccc(C)c2c1[nH]c1cc(Cl)ccc12 | BaL | TZM-bl |  |  | 3.8 µM |
| C#C[C@]1(CO)O[C@@H](n2cnc3c(N)nc(F)nc32)C[C@@H]1OC(=O)Cc1ccccc1 | NL4-3 | U373-CD4-CXCR4 | pseudotyped |  | 0.0072 µM |
| [Cl][Mn][Cl].c1c2c3nc4c1CCCC4=NCCNCCNCCN=C3CCC2 | NL4-3 | TZM-bl |  |  | 1.9 µM |
| O=C(Nc1cc(-c2ccc3c(c2)CCCC3)[nH]n1)c1ccc(-c2cncnc2)s1 | NL4-3 | MT-4 |  | K103N | 1.4 µM |
| COc1cccc2ccc(-c3nnc(-c4ccncc4)o3)nc12 | VB59 | TZM-bl |  |  | 125 µM |
| CC1=NO[C@@]2(CC[C@H](C)N3C[C@H]2n2cc(C(=O)NCc4ccc(F)cc4F)c(=O)c(OCOC(=O)N(C)c4ncccc4CN(CC(=O)O)C(=O)OCOP(=O)(O)O)c2C3=O)C1 | IIIB | MT-4 |  |  | 0.000917 µM |
| C[C@H]1CC[C@H](O)[C@H]2CN1C(=O)c1c(O)c(=O)c(C(=O)NCc3c(F)cc(F)cc3F)cn12 | IIIB | MT-4 |  |  | 0.018 µM |
| CC1=NO[C@@]2(CC[C@H](C)N3C[C@H]2n2cc(C(=O)NCc4ccc(F)cc4F)c(=O)c(OCOC(=O)N4CC[C@H]4COP(=O)(O)O)c2C3=O)C1 | IIIB | MT-4 |  |  | 0.021 µM |
| O=C(/C=C/c1ncc(-c2cccnc2)cn1)Nc1cc(-c2ccc3c(c2)CCCC3)[nH]n1 | NL4-3 | MT-4 |  | WT | 0.96 µM |
| [Cl][Cu][Cl].c1cc2c3nc1CNCCNCCNCCNC3CCC2 | NL4-3 | TZM-bl |  |  | 1.8 µM |
| C#C[C@]1(CO)O[C@@H](n2cnc3c(N)nc(F)nc32)C[C@@H]1OC(=O)C(CCCCCC)CCCCCCCC | NL4-3 | U373-CD4-CXCR4 | pseudotyped |  | 0.5546 µM |
| CC(=O)N1CC[C@@H](N2CCC(c3nn(C)c4ccc(-c5nc6cc(C)c([C@H](OC(C)(C)C)C(=O)O)c(-c7ccc(Cl)cc7)c6s5)nc34)CC2)C1 | IIIB | MT-4 |  |  | 0.002 µM |
| Cc1ccnc2c1NC(=O)c1cccnc1N2C1CC1 |  | CD4+ T-cell |  |  | >40.5 µM |
| Cc1ccnc2c1NC(=O)c1cccnc1N2C1CC1 | NL4-3 | MT-2 |  |  | 0.00032 µM |
| [Cl][Mn][Cl].c1c2c3nc4c1CCC[C@@H]4NCCNCCNCCN[C@H]3CCC2 | NL4-3 | TZM-bl |  |  | 1.6 µM |
| COc1cccc(/C=C/c2cc(Cl)c3ccccc3n2)c1OC | UG070 | TZM-bl |  |  | 97.92 µM |
| [Cl][Fe]([Cl])[Cl].c1cc2c3nc1CNCCNCCNCCNC3CCC2 | NL4-3 | TZM-bl |  |  | 0.25 µM |
| Fc1ccc(/C=C/c2cc(Cl)c3ccccc3n2)c(F)c1 | VB59 | TZM-bl |  |  | >166 µM |
| CC(C)=CCOc1cc(NC(=S)c2ccoc2C)ccc1Cl | NL4-3 | TZM-bl |  | (36G)V38E N42S | >2000 µM |
| C#C[C@]1(COC(=O)OCC)O[C@@H](n2cnc3c(N)nc(F)nc32)C[C@@H]1OC(=O)CCCCCCCCC | NL4-3 | U373-CD4-CXCR4 | pseudotyped |  | 0.0114 µM |
| Cc1cc2nc(-c3ccc4c(c3)c(N3C5CC3CN(C3COC3)C5)nn4C)sc2c(-c2ccc(Cl)cc2)c1[C@H](OC(C)(C)C)C(=O)O | IIIB | MT-4 |  |  | 0.011 µM |
| C#C[C@]1(CO)O[C@@H](n2cnc3c(N)nc(F)nc32)C[C@@H]1OC(=O)CCCCCCCCCCCCC | NL4-3 | U373-CD4-CXCR4 | pseudotyped |  | 0.0015 µM |
| [Cl][Cu][Cl].c1cc2nc(c1)CNCCNCCNCCNC2 | NL4-3 | TZM-bl |  |  | 67.7 µM |
| Cc1cn([C@H]2C[C@H](N=[N+]=[N-])[C@@H](CO)O2)c(=O)[nH]c1=O | VB59 | TZM-bl |  |  | 0.03 µM |
| [Cl][Zn][Cl].c1cc2nc(c1)CNCCNCCNCCNC2 | NL4-3 | TZM-bl |  |  | 18.6 µM |
| O=C(Nc1cc(-c2ccc3c(c2)CCCC3)[nH]n1)c1ccc(-c2ccncc2)s1 | NL4-3 | MT-4 |  | K103N | 3.36 µM |
| CC(=O)N1CCC(N2CCC(c3nn(C)c4ccc(-c5nc6cc(C)c([C@H](OC(C)(C)C)C(=O)O)c(-c7ccc(Cl)cc7)c6s5)nc34)CC2)C1 | IIIB | MT-4 |  |  | 0.002 µM |
| C(=Nc1ccccc1)c1cc2ccccc2nc1Nc1ccccc1 | UG070 | TZM-bl |  |  | >100 µM |
| COC(=O)N[C@H](C(=O)N[C@@H](Cc1ccc(C#Cc2cnc(N3CC4CCC(C3)N4C3COC3)nc2)cc1)[C@H](CN(Cc1c(F)cc(-c2ccn(C(F)F)n2)cc1F)NC(=O)[C@@H](NC(=O)OC)C(C)(C)C(F)(F)F)OC(=O)CC(C)(C)c1c(CC(=O)NCc2cc(C#N)cc(C(=O)O)c2)cc(C)cc1OP(=O)(O)O)C(C)(C)C(F)(F)F | IIIB | MT-4 |  |  | 0.2345 µM |
| Cc1cc2nc(-c3ccc4c(c3)c(N3CCN(C5CC(O)C5)CC3)nn4C)sc2c(-c2ccc(Cl)cc2)c1[C@H](OC(C)(C)C)C(=O)O | IIIB | MT-4 |  |  | 0.018 µM |
| C#C[C@]1(COC(=O)OCC)O[C@@H](n2cnc3c(N)nc(F)nc32)C[C@@H]1OC(=O)CCCCCCCCCCCCCCCCC | NL4-3 | U373-CD4-CXCR4 | pseudotyped |  | 1.266 µM |
| Cc1cc2nc(-c3ccc4c(n3)c(C3CCN(C5COC5)CC3)cn4C)sc2c(-c2ccc(Cl)cc2)c1[C@H](OC(C)(C)C)C(=O)O | IIIB | MT-4 |  |  | 0.006 µM |
| Cc1nc(C)c([C@H](OC(C)(C)C)C(=O)O)c(N2CCC(C)(C)CC2)c1-c1ccc(OCC2CCC(C)CC2)cc1 | NL4-3 | MT-2 |  |  | ≤0.1 µM |
| COC(=O)N1CCC(N2CCC(c3cn(C)c4ccc(-c5nc6cc(C)c([C@H](OC(C)(C)C)C(=O)O)c(-c7ccc(Cl)cc7)c6s5)cc34)CC2)C1 | IIIB | MT-4 |  |  | 0.007 µM |
| C#C[C@]1(CO)O[C@@H](n2cnc3c(NC(=O)CCCCCC)nc(F)nc32)C[C@@H]1OC(=O)CCCCCC | NL4-3 | U373-CD4-CXCR4 | pseudotyped |  | 0.0094 µM |

Repeating the final 3 entries:

| SMILES | strain | cells | conditions | changes | value |
|---|---|---|---|---|---|
| Cc1nc(C)c([C@H](OC(C)(C)C)C(=O)O)c(N2CCC(C)(C)CC2)c1-c1ccc(OCC2CCC(C)CC2)cc1 | NL4-3 | MT-2 |  |  | ≤0.1 µM |
| COC(=O)N1CCC(N2CCC(c3cn(C)c4ccc(-c5nc6cc(C)c([C@H](OC(C)(C)C)C(=O)O)c(-c7ccc(Cl)cc7)c6s5)cc34)CC2)C1 | IIIB | MT-4 |  |  | 0.007 µM |
| C#C[C@]1(CO)O[C@@H](n2cnc3c(NC(=O)CCCCCC)nc(F)nc32)C[C@@H]1OC(=O)CCCCCC | NL4-3 | U373-CD4-CXCR4 | pseudotyped |  | 0.0094 µM |